Compound potency records, mixed from different reports. Data source: NIAID ChemDB in PubChem.

All rows: target-level tests; organism: HIV-1; target: Reverse transcriptase; read by: nucleotide incorporation / radiometric; endpoint: IC50

Neighbouring rows are from separate reports. ICn is the concentration giving n% inhibition. Blank or dashed fields: not listed here. Two numbers with a dash give a range or band.

smiles	changes	strain	value
Cc1cc(C)c2ccccc2c1-n1c(SCC(=O)Nc2ccc(S(N)(=O)=O)cc2Cl)nnc1C(F)(F)F	RT-Y188L	-	>0.1 µM
CCN1c2ncc(CCc3cn[nH]c3)cc2C(=O)Nc2c(C)ccnc21	-	WT	<1 µM
CCN1c2ncc(CCOc3ccc(CC(C)C(=O)O)c4ccccc34)cc2C(=O)N(C)c2ccc(Cl)nc21	-	WT	<0.1 µM
CCN1c2ncc(CCc3ccncc3)cc2C(=O)N(C)c2ccc(F)nc21	-	WT	<1 µM
Cc1cc(S(N)(=O)=O)ccc1NC(=O)CSc1nnc(Br)n1-c1ccc(F)c2ccccc12	-	-	<0.05 µM
CCN1c2ncc(CCOc3cccc4c3n(C)c(=O)n4C)cc2C(=O)N(C)c2cccnc21	RT-K103N Y181C	IIIB	>0.1 µM
CCc1ccc(-n2c(Br)nnc2SCC(=O)Nc2ccc(C(=O)NCC3CCCCC3)cc2Cl)c2ccccc12	-	-	<0.05 µM
CCN1c2ncc(CCOc3ccc(CC(C)C(=O)O)c4ccccc34)cc2C(=O)Nc2c(C)ccnc21	-	WT	<0.1 µM
CCN1c2ncccc2C(=O)N(C)c2ccc(-c3c[nH]c(C(C)=O)c3)nc21	RT-Y181C	-	<1 µM
NS(=O)(=O)c1ccc(NC(=O)CSc2nnc(Br)n2-c2c(Cl)cc(C3CCC3)c3ccccc23)c(Cl)c1	RT-Y188L	-	0.05–0.1 µM
CCN1c2ncc(CCOc3cccc4c3ccc[n+]4[O-])cc2C(=O)N(C)c2ccc(Cl)nc21	RT-Y188L	-	0.439 µM
CN1C(=O)c2cccnc2N(C2CC2)c2nc(-c3cc[nH]c3)ccc21	RT-Y181C	-	<1 µM
CCN1c2ncc(CCOc3ccc(C(C)C(=O)O)c4ccccc34)cc2C(=O)N(C)c2cccnc21	RT-K103N Y181C	-	0.1–1 µM
CCc1ccc(-n2c(Br)nnc2SCC(=O)Nc2ccc(C(=O)NCC(C)(C)N)cc2Cl)c2ccccc12	RT-Y181C	-	<0.05 µM
CCN1c2ncc(CCOc3ccc(C(=O)O)c4ccccc34)cc2C(=O)Nc2c(C)ccnc21	-	WT	<0.1 µM
Cc1cc(C2CC2)c2ccccc2c1-n1c(Br)nnc1SCC(=O)Nc1ccc(C(=O)O)cc1Cl	RT-Y181C	-	<0.05 µM
CCN1c2ncc(CCc3ccncc3)cc2C(=O)N(C)c2ccc(I)nc21	RT-Y181C	-	<1 µM
N#Cc1cccc2c(-n3c(SCC(=O)Nc4ccc(S(N)(=O)=O)cc4Cl)nnc3C(F)F)cccc12	-	-	0.05–0.1 µM
CCN1c2ncccc2C(=O)N(C)c2ccc(-c3c[nH]c(C(N)=O)c3)nc21	-	WT	<1 µM
Cc1ccc2c(C)cc(C)c(-n3c(SCC(=O)Nc4ccc(S(N)(=O)=O)cc4Cl)nnc3C(F)F)c2n1	RT-Y188L	-	>0.1 µM
CCOC(=O)c1cc(-c2ccc3c(n2)N(CC)c2ncccc2C(=O)N3C)c[nH]1	RT-Y181C	-	<1 µM
Cc1cc(C)cc(S(=O)(=O)c2c(C(N)=O)[nH]c3ccc(F)c(F)c23)c1	RT-K103N	-	0.75 µM
CCCN1c2nc(-c3cn[nH]c3)ccc2NC(=O)c2cccnc21	RT-Y188L	-	>1 µM
NS(=O)(=O)c1ccc(NC(=O)CSc2nnc(C(F)F)n2-c2ccc(C3CCC3)c3ccccc23)c(Cl)c1	RT-Y188L	-	0.05–0.1 µM
CN1C(=O)c2cccnc2N(C2CC2)c2nc(-c3cn[nH]c3)ccc21	RT-Y188L	-	<1 µM
CCc1ccc(-n2c(CF)nnc2SCC(=O)Nc2ccc(S(=O)(=O)NC)cc2Cl)c2ccccc12	RT-Y181C	-	<0.05 µM
Cc1cc(C)cc(S(=O)(=O)c2c(C(N)=O)[nH]c3ccc(Cl)cc23)c1	-	WT	0.003 µM
CCN1c2ncc(CCc3ccncc3)cc2C(=O)N(C)c2ccc(N)nc21	RT-Y181C	-	<1 µM
CCN1c2ncccc2C(=O)N(C)c2ccc(-c3cnn(CC)c3)nc21	RT-Y188L	-	>1 µM
O=C(CSc1nnc(Br)n1-c1ccc(C2CCC2)c2ccccc12)Nc1ccc(C(=O)O)cc1Cl	RT-Y188L	-	>0.1 µM
CCN1c2ncccc2C(=O)N(C)c2ccc(-c3cnn(C)c3)nc21	-	WT	<1 µM
CCN1c2ncc(CC(O)c3ccncc3)cc2C(=O)N(C)c2cccnc21	RT-Y181C	-	>1 µM
CCN1C(=O)c2cccnc2N(C)c2nc(-c3ccc[nH]3)ccc21	RT-Y181C	-	>1 µM
CCN1c2ncc(CCc3cccc(N)c3)cc2C(=O)N(C)c2ccc(Cl)nc21	RT-Y181C	-	<1 µM

Again, the opening 4 rows:

{"smiles": "Cc1cc(C)c2ccccc2c1-n1c(SCC(=O)Nc2ccc(S(N)(=O)=O)cc2Cl)nnc1C(F)(F)F", "changes": "RT-Y188L", "value": ">0.1 µM"}
{"smiles": "CCN1c2ncc(CCc3cn[nH]c3)cc2C(=O)Nc2c(C)ccnc21", "strain": "WT", "value": "<1 µM"}
{"smiles": "CCN1c2ncc(CCOc3ccc(CC(C)C(=O)O)c4ccccc34)cc2C(=O)N(C)c2ccc(Cl)nc21", "strain": "WT", "value": "<0.1 µM"}
{"smiles": "CCN1c2ncc(CCc3ccncc3)cc2C(=O)N(C)c2ccc(F)nc21", "strain": "WT", "value": "<1 µM"}